For the experiment, the target named is T1, eE2-Fc fusion (J6 genotype 2a E2 ectodomain […], thrombin cleavage site, human Fc domain) (Hepatitis C virus J6 (genotype 2a); …).
T1 construct: Used as HEK293T cell culture supernatant in the CD81-LEL ELISA; also called pPro-eE2-Fc product; wild type eE2-Fc; not shown: thrombin cleavage site; Fc domain of human IgG
Put plainly: ELISA, eE2-Fc supernatant on coated GST-mouse CD81 LEL, anti-human Fc-HRP. A general note: In an ELISA, binding on a coated surface is turned into a signal by an enzyme label.

B1: GST-mouse CD81 LEL (receptor)
chain: MSPILGYWKIKGLVQPTRLLLEYLEEKYEEHLYERDEGDKWRNKKFELGLEFPNLPYYIDGDVKLTQSMAIIRYIADKHNMLGGCPKERAEISMLEGAVLDIRYGVSRIAYSKDFETLKVDFLSKLPEMLKMFEDRLCHKTYLNGDHVTHPDFMLYDALDVVLYMDPMCLDAFPKLVCFKKRIEAIPQIDKYLKSSKYIAWPLQGWQATFGGGDHPPKFVNKDQIAKDVKQFYDQALQQAVMDDDANNAKAVVKTFHETLNCCGSNALTTLTTTILRNSLCPSGGNILTPLLQQDCHQKIDELFSGK
notes: also called GST-mCD81 LEL; mCD81; not shown: carboxy-terminal histidine tag
For B1, the binding result is given as “no binding”.
